A mixed list of measured activities; the numbers were collected in NIAID ChemDB.

Shared fields: growth or infection tests; species: HIV-1; cell line: MT-2; measure: EC50

Lines come from different laboratories, so protocols vary.

structure	strain	changes	method	result
Cc1cn([C@H]2C[C@H](N=[N+]=[N-])[C@@H](CO)O2)c(=O)[nH]c1=O	Q151M(RT-Q151M)	RT-Q151M	p24	0.17 µM
Nc1nc(NC2CC2)c2ncn([C@H]3C=C[C@@H](CO)C3)c2n1	LAI	-	cytopathic effect / XTT	2.5 µM
Nc1ncnc2c1ncn2[C@@H]1O[C@H](CO)C[C@@H]1F	M184V(RT-M184V)	RT-M184V	p24	4.8 µM
Cc1cn([C@H]2C=C[C@@H](CO)O2)c(=O)[nH]c1=O	HXB2-D WT	-	cytopathic effect / XTT	6.7 µM
Cc1cn([C@H]2C=C[C@@H](CO)O2)c(=O)[nH]c1=O	Clinical isolate	A62V (mixture)/L74V/V75I (mixture)/K103N/Y115F/F116Y/Q151M	recombinant virus assay	7.2 µM
Cc1cn([C@H]2C[C@H](N=[N+]=[N-])[C@@H](CO)O2)c(=O)[nH]c1=O	HXB2-D WT	-	cytopathic effect / XTT	0.14 µM
Cc1cn([C@H]2C[C@H](N=[N+]=[N-])[C@@H](CO)O2)c(=O)[nH]c1=O	IIIB	L441P	p24 / ELISA	0.153 µM
Nc1nc(NC2CC2)c2ncn([C@H]3C=C[C@@H](CO)C3)c2n1	NL4-3 WT	-	p24	0.018 µM
O=c1[nH]cnc2c1ncn2[C@H]1CC[C@@H](CO)O1	RT P119S V179D L214F	RT-P119S V179D L214F	p24	1.6 µM
Nc1nc2c(ncn2[C@H]2CO[C@@H](CO)O2)c(=O)[nH]1	Site-directed mutant	RT-K65R K103N	cytopathic effect / XTT	18.7 µM
Nc1nc(=O)n([C@@H]2CS[C@H](CO)O2)cc1F	Clinical isolate	D67N/T69N/K70R/K103N/M184V/G190S/T215F/K219Q	recombinant virus assay	>13.3 µM
Nc1ccn([C@H]2CC[C@@H](CO)O2)c(=O)n1	L74V(RT-L74V)	RT-L74V	p24	1 µM
Cc1cn([C@H]2C[C@H](N=[N+]=[N-])[C@@H](CO)O2)c(=O)[nH]c1=O	Site-directed mutant	RT-K65R K103N	cytopathic effect / XTT	0.7 µM
Cc1ccnc2c1NC(=O)c1cccnc1N2C1CC1	-	RT-delta67 T69G	p24	0.016 µM
CCOP(=O)(COc1ccc(C[C@H](NC(=O)O[C@H]2CO[C@H]3OCC[C@H]32)[C@H](O)CN(CC(C)C)S(=O)(=O)c2ccc(OC)cc2)cc1)OCC	IIIB	8374-P36 GS-8374-resistant	ATP	0.015 µM
C[C@H](Cn1cnc2c(N)ncnc21)OCP(=O)(O)O	74V (ddI- ddC-resistant RT L74V)	RT-L74V	p24	2 µM
Nc1ncnc2c1ncn2CCOCP(=O)(O)O	IIIB	-	cytopathic effect / XTT	8.9 µM
CC(C)CN(C[C@@H](O)[C@H](Cc1ccccc1)NC(=O)O[C@H]1CCOC1)S(=O)(=O)c1ccc(N)cc1	IIIB	K112M K113E V128I M200I H219P	p24 / ELISA	0.0473 µM

An empty or dashed field is not shown. ECn is the concentration giving n% inhibition of infection, replication or growth.